Assay results reported in publication PMC7179022, “Carvacrol Prodrugs with Antimicrobial Activity Loaded on Clay Nanocomposites” (Materials, 2020).

Assay: Adsorption equilibrium of prodrugs onto montmorillonite (VHS)
Type: physicochemical
Conditions: 1:1 w/w prodrug:VHS, 24 h, 22 °C

Going from `Cc1ccc(C(C)C)cc1OC(=O)CN` [WSCP1] to `Cc1ccc(C(C)C)cc1OC(=O)CCN` [WSCP3], the “amount of carvacrol prodrug retained by VHS” value falls from 24 % w/w to 22 % w/w.

For `Cc1ccc(C(C)C)cc1OC(=O)[C@@H](C)N` [WSCP2], the “amount of carvacrol prodrug retained by VHS” value was 32 % w/w.
